Molecular target: HCV NS3 protease type 1b (Hepatitis C virus genotype 1b, UniProt P26663)
Experiment: Recombinant HCV NS3 protease radiometric assay
Conditions: read-out: enzyme activity (IC50 grade), asterisk; asterisk (*) = radiometric assay of Example 49
Description: The substrate used for the HCV NS3 protease radiometric assay, DDIVPC-SMSYTW (SEQ. ID NO.: 2), is cleaved between the cysteine and the serine residues by the enzyme. The sequence DDIVPC-SMSYTW (SEQ. ID NO.: 2) corresponds to the NS5A/NS5B natural cleavage site in which the cysteine residue in P2 has been substituted for a proline. The peptide substrate DDIVPC-SMSYTW (SEQ. ID NO.: 2) and the tracer biotin-DDIVPC-SMS[^125I-Y]TW (SEQ. ID NO.: 3) were incubated with the recombinant NS3 protease in the absence or in the presence of inhibitors. The separation of substrate from products was performed by adding avidin-coated agarose beads to the assay mixture followed by filtration. The amount of SMS[^125I-Y]TW (SEQ. ID NO.: 4) product found in the filtrate (with or without inhibitor) allowed for the calculation of the percentage of substrate conversion and of the percentage of inhibition.
Assay buffer: 50 mM Tris-HCl, pH 7.5, 30% (w/v) glycerol, 2% (w/ v) CHAPS, 1 mg/mL BSA, 1 mM TCEP (TCEP added just prior to use from a 1 M stock solution in water).
Substrate: DDIVPC-SMSYTW (SEQ. ID NO.: 2), 25 μM final concentration (from a 2 mM stock solution in DMSO stored at −20° C. to avoid oxidation). […]
The filtrates were counted on a Packard® TopCount instrument using a ^125I-liquid protocol for 1 minute. The %inhibition was calculated with the following equation: […]

Chains of the proteins cited; added tags and fusions are not shown. Residues count along the entry.
UniProt P26663, 1027-1657 limits assumed: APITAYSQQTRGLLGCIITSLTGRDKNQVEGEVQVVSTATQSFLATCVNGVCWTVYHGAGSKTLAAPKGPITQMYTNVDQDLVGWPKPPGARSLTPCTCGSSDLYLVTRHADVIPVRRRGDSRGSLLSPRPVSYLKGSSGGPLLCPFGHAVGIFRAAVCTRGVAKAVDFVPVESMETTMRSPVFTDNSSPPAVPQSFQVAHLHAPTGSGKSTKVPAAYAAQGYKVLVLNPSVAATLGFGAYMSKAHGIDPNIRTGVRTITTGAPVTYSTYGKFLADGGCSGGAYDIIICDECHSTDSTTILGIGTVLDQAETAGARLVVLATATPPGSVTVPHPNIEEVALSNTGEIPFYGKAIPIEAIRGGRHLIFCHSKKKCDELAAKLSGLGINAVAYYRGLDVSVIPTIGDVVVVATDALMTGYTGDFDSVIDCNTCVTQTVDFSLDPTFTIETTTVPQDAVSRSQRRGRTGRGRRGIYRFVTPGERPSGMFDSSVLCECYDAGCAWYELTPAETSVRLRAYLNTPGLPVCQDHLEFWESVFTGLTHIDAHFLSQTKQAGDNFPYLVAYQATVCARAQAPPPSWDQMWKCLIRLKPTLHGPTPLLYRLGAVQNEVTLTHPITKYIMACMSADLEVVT
UniProt P26663, 1658-1711 partner limits assumed: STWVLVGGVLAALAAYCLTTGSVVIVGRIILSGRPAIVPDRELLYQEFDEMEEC
UniProt P26663, 1027-1208 limits assumed: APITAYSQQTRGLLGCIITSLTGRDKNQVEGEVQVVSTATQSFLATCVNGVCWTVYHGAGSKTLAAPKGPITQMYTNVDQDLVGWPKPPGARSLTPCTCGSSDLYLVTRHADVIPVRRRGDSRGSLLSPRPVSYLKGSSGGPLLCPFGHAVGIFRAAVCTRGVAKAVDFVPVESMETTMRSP

COc1ccc2c(O[C@@H]3C[C@H]4C(=O)N[C@]5(C(=O)O)C[C@@H]5CCCCCC[C@H](NC(=O)OC(C)(C)C)C(=O)N4C3)cc(-c3ccccc3)nc2c1 and COc1ccc2c(OC3CC4C(=O)NC5(C(=O)O)CC5C=CCCCCC(NC(=O)OC(C)(C)C)C(=O)N4C3)cc(-c3ccccc3)nc2c1 (stereo not drawn) cannot be ordered by IC50: > 1000 nM for the first, > 1000 nM for the second.

Molecular target: His-NS3-NS4AFL (full-length NS3-NS4A protein complex) (Hepatitis C virus genotype 1b, UniProt P26663)
Experiment: Full-length NS3-NS4A heterodimer protein fluorogenic assay
Conditions: read-out: enzyme activity (IC50 grade); fluorogenic assay of Example 48; no asterisk
Excerpt: The NS2-NS5B-3′non coding region was cloned by RT-PCR into the pCR®3 vector (Invitrogen) using RNA extracted from the serum of an HCV genotype 1b infected individual (provided by Dr. Bernard Willems, Hôpital St-Luc, Montréal, Québec, Canada). The NS3-NS4A region (NS3-NS4AFL) was then subcloned by PCR into the pFastBac™ HTa baculovirus expression vector (Gibco/BRL). The vector sequence includes a region encoding a 28-residue N-terminal sequence which contains a hexahistidine tag. The Bac-to-Bac™ baculovirus expression system (Gibco/BRL) was used to produce the recombinant baculovirus. His-NS3-NS4AFL was expressed by infecting 10^6 Sf21 cells/mL with the recombinant baculovirus at a multiplicity of infection of 0.1-0.2 at 27°. Authentic auto-proteolysis occurs during expression to produce a non covalent and stable NS3-NS4A protein complex (referred to as full-length “FL”). The infected culture was harvested 48 to 64 h later by centrifugation at 4°. The cell pellet was homogenized in 50 mM NaPO4, pH 7.5, 40% glycerol (w/v), 2 mM β-mercaptoethanol, in presence of a cocktail of protease inhibitors. His-NS3-NS4AFL was then extracted from the cell lysate with 1.5% NP-40, 0.5% Triton X-100, 0.5M NaCl, and a DNase treatment. After ultracentrifugation, the soluble extract was diluted 4-fold and bound on a Pharmacia Hi-Trap Ni-chelating column. The His-NS3-NS4AFL was eluted in a >90% pure form (as judged by SDS-PAGE), using a 50 to 400 mM imidazole gradient. The His-NS3-NS4AFL was stored at −80° in 50 mM sodium phosphate, pH 7.5, 10% (w/v) glycerol, 0.5 M NaCl, 0.25 M imidazole, 0.1% NP-40. It was thawed on ice and diluted just prior to use.
The protease activity of His-NS3-NS4AFL was assayed in 50 mM Tris-HCl, pH 8.0, 0.25 M sodium citrate, 0.01% (w/v) n-dodecyl-β-D-maltoside, 1 mM TCEP. Five (5) μM of the internally quenched substrate anthranilyl-DDIVPAbu[C(O)—O]-AMY(3-NO2)TW-OH (SEQ. ID NO.: 1) in presence of various concentrations of inhibitor were incubated with 1.5 nM of His-NS3-NS4AFL for 45 min at 23°. […] The reaction was terminated with the addition of 1M MES, pH 5.8. Fluorescence of the N-terminal product was monitored on a Perkin-Elmer LS-50B fluorometer equipped with a 96-well plate reader (excitation wavelength: 325 nm, emission wavelength: 423 nm).
The % inhibition was calculated with the following equation:
100−[(fluoinh−fluoblank)/(fluoctl−fluoblank)×100]
A non-linear curve fit with the Hill model was applied to the inhibition-concentration data, and the 50% effective concentration (IC50) was calculated by the use of SAS software (Statistical Software System; SAS Institute, Inc. Cary, N.C.).

First: COc1ccc2c(O[C@@H]3C[C@H]4C(=O)N[C@]5(C(=O)O)CC5CC/C=C\CO[C@@H](C)[C@H](NC(=O)OC(C)(C)C)C(=O)N4C3)cc(-c3ccccc3)nc2c1 (stereo partly drawn)
Second: COc1ccc2c(O[C@@H]3C[C@H]4C(=O)N[C@]5(C(=O)O)C[C@H]5CC/C=C/CO[C@@H](C)[C@H](NC(=O)OC(C)(C)C)C(=O)N4C3)cc(-c3ccccc3)nc2c1
The IC50 of the first is higher: 100 to 1000 nM for the first, < 100 nM for the second. The second is the more potent here.

COc1ccc2c(O[C@@H]3C[C@H]4C(=O)N[C@]5(C(=O)O)C[C@H]5CCCCCC[C@H](NC(=O)OC(C)(C)C)C(=O)N4C3)cc(-c3ccccc3)nc2c1 and COc1ccc2c(O[C@@H]3C[C@H]4C(=O)N[C@]5(C(=O)O)CC5CCCCCCC[C@H](NC(=O)OC(C)(C)C)C(=O)N4C3)cc(-c3ccccc3)nc2c1 (stereo partly drawn) cannot be ordered by IC50: < 100 nM for the first, < 100 nM for the second.

COc1ccc2c(O[C@@H]3C[C@H]4C(=O)N[C@]5(C(=O)O)CC5CCCCCO[C@@H](C)[C@H](NC(=O)OC(C)(C)C)C(=O)N4C3)cc(-c3ccccc3)nc2c1 (stereo partly drawn) and COc1ccc2c(O[C@@H]3C[C@H]4C(=O)N[C@]5(C(=O)O)C[C@H]5CCCCCOC[C@H](NC(=O)OC(C)(C)C)C(=O)N4C3)cc(-c3ccccc3)nc2c1 cannot be ordered by IC50: < 100 nM for the first, < 100 nM for the second.

COc1ccc2c(O[C@@H]3C[C@H]4C(=O)N[C@]5(C(=O)O)CC5CCN(C(C)=O)CCCC[C@H](NC(=O)OC(C)(C)C)C(=O)N4C3)cc(-c3ccccc3)nc2c1 (stereo partly drawn) and COc1ccc2c(O[C@@H]3C[C@H]4C(=O)N[C@]5(C(=O)O)CC5CCN(C(=O)c5ccccc5)CCCC[C@H](NC(=O)OC(C)(C)C)C(=O)N4C3)cc(-c3ccccc3)nc2c1 (stereo partly drawn) fall in the same range of IC50: 100 to 1000 nM for the first, 100 to 1000 nM for the second.

Going from COc1ccc2c(O[C@@H]3C[C@H]4C(=O)N[C@]5(C(=O)O)CC5CCNCCCC[C@H](NC(=O)OC(C)(C)C)C(=O)N4C3)cc(-c3ccccc3)nc2c1 (stereo partly drawn) to COc1ccc2c(O[C@@H]3C[C@H]4C(=O)N[C@]5(C(=O)O)CC5CCCCNCC[C@H](NC(=O)OC(C)(C)C)C(=O)N4C3)cc(-c3ccccc3)nc2c1 (stereo partly drawn), the IC50 falls from > 1000 nM to < 100 nM. The second is the more potent here.

COc1ccc2c(O[C@@H]3C[C@H]4C(=O)N[C@]5(C(=O)O)C[C@@H]5/C=C\CCC(=O)CC[C@H](NC(=O)OC(C)(C)C)C(=O)N4C3)cc(-c3ccccc3)nc2c1 and COc1ccc2c(O[C@@H]3C[C@H]4C(=O)N[C@]5(C(=O)O)C[C@H]5/C=C\CCC(=O)CC[C@H](NC(=O)OC(C)(C)C)C(=O)N4C3)cc(-c3ccccc3)nc2c1 cannot be ordered by IC50: < 100 nM for the first, < 100 nM for the second.

With COc1ccc2c(O[C@@H]3C[C@H]4C(=O)N[C@]5(C(=O)O)CC5CCCOCCC[C@H](NC(=O)OC(C)(C)C)C(=O)N4C3)cc(-c3ccccc3)nc2c1 (stereo partly drawn) the IC50 was < 100 nM.

— patent publication US6608027B1, “Macrocyclic peptides active against the hepatitis C virus” (Boehringer Ingelheim (Canada) Ltd, priority 1999, dated 2003)
